These results are taken from US20240109955A1 (published 2024).

Test in all cases: cell-based or functional assay
The target in assay [1] is SARS-CoV-2 spike protein, Omicron variant XBB1.5 (SARS-CoV-2).
The target in assay [2] is SARS-CoV-2 spike protein, Omicron variant XBB (SARS-CoV-2).
Assay [3] has as its target SARS-CoV-2 spike protein, Omicron variant CH.1.1 (SARS-CoV-2).
Assay [4] deals with SARS-CoV-2 spike protein, Omicron variant BA.2.75.2 (SARS-CoV-2).
Assay [5] has as its target SARS-CoV-2 spike protein, Omicron variant BA.4/5 (SARS-CoV-2).
The target in assay [6] is SARS-CoV-2 spike protein, Omicron variant BQ.1.1 (SARS-CoV-2).
Assay [7] has as its target SARS-CoV-2 spike protein, Omicron variant BQ.1 (SARS-CoV-2).
Assay [8] addresses SARS-CoV-2 spike protein, Delta variant (SARS-CoV-2).
Assay [9] has as its target SARS-CoV-2 Omicron variant B.1.1.529 spike protein (SARS-CoV-2, UniProt P0DTC2 14-1273).

B1: MX1069 (other)
chain 1: QTVVTQEPSFSVSPGGTVTLTCGLSSGSVSTAYFPSWYQQTPGQAPRTLIYGTNTRSSGVPDRFSGSILGNKAALTITGAQADDESDYYCVLYMGRGIVVFGGGTKLTVLGGSSGEIVLTQSPGTLSLSPGETATLSCRASQSFSSDLAWYQQKPGQAPRLLIYGASSRATGIPDRFSGSGSGTDFTLTISRLEPADFAVYYCQQYGSSPPVTFGGGTKVEIKGGGGSGGSGSGGGGSASGSGEVQLVESGGGLIQPGGSLRLSCAASGVIVSYNYMNWVRQAPGKGLEWVSVIYSGGSTFYADSVRGRFTISRDNSKNTLYLQMNSLRAEDTAVYYCARDLGPAGAFDIWGLGTMVTVSSGGSSGQVQLVESGGGVVQPGRSLRLSCAASGFTLSSYGMHWVRQAPGKGLEWVAVISYDGSNKYYVDSVKGRFTISRDNSKNTLYLQMNSLRAEDTAVYYCRWAYWELLPDYYYGMDVWGQGTTVTVSSASGGSGDKTHTCPPCPAPELLGGPSVFLFPPKPKDTLMISRTPEVTCVVVDVSHEDPEVKFNWYVDGVEVHNAKTKPREEQYNSYVVSVLTVLHQDWLNGKEYKCKVSNKALPAPIEKTISKAKGQPREPQVYTLPPCRDELTKNQVSLWCLVKGFYPSDIAVEWESNGQPENNYKTTPPVLDSDGSFFKKLTVDKSRWQQGNVFSCSVLHEALHSHYTQKSLSLSPG
chain 2: EIVLTQSPGTLSLSPGETATLSCRASQSFSSDLAWYQQKPGQAPRLLIYGASSRATGIPDRFSGSGSGTDFTLTISRLEPADFAVYYCQQYGSSPPVTFGGGTKVEIKGGSSGDTVMTQSPLSLPVTPGEPASISCRSSQSLLNSNGYNYLDWYVQKPGQSPQLLIYLGSNRASGVPDRFSGSGSGTDFTLKISRVEAEDVGVYYCMQPLQTPLFTFGPGTKVEIKGGGGSGGSGSGGGGSASGSGQVTLRESGPALVKPTQTLTLTCTFSGFSLSTRGVCVSWIRQPPGKALEWLAFIDWDDDKYYNTSLKTRLTISKDTSKNQVVLTMTNVHPVDTATYYCARISSHHGSSWCTTFDYWGQGALVTVSAGGSSGEVQLVESGGGLIQPGGSLRLSCAASGVIVSYNYMNWVRQAPGKGLEWVSVIYSGGSTFYADSVRGRFTISRDNSKNTLYLQMNSLRAEDTAVYYCARDLGPAGAFDIWGLGTMVTVSSASGGSGDKTHTCPPCPAPELLGGPSVFLFPPKPKDTLMISRTPEVTCVVVDVSHEDPEVKFNWYVDGVEVHNAKTKPREEQYNSYVVSVLTVLHQDWLNGKEYKCKVSNKALPAPIEKTISKAKGQPREPQVCTLPPSRDELTKNQVSLSCAVKGFYPSDIAVEWESNGQPENNYKTTPPVLDSDGSFFLVSKLTVDKSRWQQGNVFSCSVLHEALHSHYTQKSLSLSPG
Consider B1, for which the “IC50, pseudovirus neutralization” value in assay [1] was 34.8 ng/mL; in assay [2], 2.48 ng/mL; in assay [3], 27.1 ng/mL; in assay [4], 1.81 ng/mL; in assay [5] it was 1.47 ng/mL; in assay [6], 1.89 ng/mL. Also, the figures for the “IC50, pseudovirus neutralization” value in assay [7] and in [8] were 0.83 ng/mL and 40.1 ng/mL, respectively. Besides, the “IC80, pseudovirus neutralization” value in assay [1] is 65.5 ng/mL; in assay [2], 5.2 ng/mL; in assay [3], 104 ng/mL; in [4], 3.33 ng/mL; in assay [5] it was 2.44 ng/mL; in assay [6], 6.5 ng/mL. Also, the results for the “IC80, pseudovirus neutralization” value in assay [7] and in assay [8] were 3.07 ng/mL and 47.6 ng/mL, respectively.

B2: MX1047 (bispecific antibody)
chain 1: DTVMTQSPLSLPVTPGEPASISCRSSQSLLNSNGYNYLDWYVQKPGQSPQLLIYLGSNRASGVPDRFSGSGSGTDFTLKISRVEAEDVGVYYCMQPLQTPLFTFGPGTKVEIKGGSSGEIVLTQSPGTLSLSPGERATLSCRASQSVSSSYLAWYQQKPGQAPRLLIYSASSRATGIPDRFSGSGSGTDFTLTISRLEPEDFAVYFCQQYVGLTGWTFGQGTKVEIKGGGGSGGSGSGGGGSASGSGQMQLVQSGPEVKKPGTSVKVSCKASGFTFTSSAVQWVRQRQRLEWIGWIVVGSGNTNYAQKFQERVTITRDMSTSTAYMELSSLRSEDTAVYYCAAPNCSNVVCYDGFDIWGQGTMVTVSSGGSSGQVTLRESGPALVKPTQTLTLTCTFSGFSLSTRGVCVSWIRQPPGKALEWLAFIDWDDDKYYNTSLKTRLTISKDTSKNQVVLTMTNVHPVDTATYYCARISSHHGSSWCTTFDYWGQGALVTVSAASGGSGDKTHTCPPCPAPELLGGPSVFLFPPKPKDTLMISRTPEVTCVVVDVSHEDPEVKFNWYVDGVEVHNAKTKPREEQYNSYVVSVLTVLHQDWLNGKEYKCKVSNKALPAPIEKTISKAKGQPREPQVYTLPPSRDELTKNQVSLTCLVKGFYPSDIAVEWESNGQPENNYKTTPPVLDSDGSFFKKLTVDKSRWQQGNVFSCSVLHEALHSHYTQKSLSLSPG
chain 2: EIVLTQSPGTLSLSPGERATLSCRASQSVSSSYLAWYQQKPGQAPRLLIYSASSRATGIPDRFSGSGSGTDFTLTISRLEPEDFAVYFCQQYVGLTGWTFGQGTKVEIKGGSSGQTVVTQEPSFSVSPGGTVTLTCGLSSGSVSTAYFPSWYQQTPGQAPRTLIYGTNTRSSGVPDRFSGSILGNKAALTITGAQADDESDYYCVLYMGRGIVVFGGGTKLTVLGGGGSGGSGSGGGGSASGSGQVQLVESGGGVVQPGRSLRLSCAASGFTLSSYGMHWVRQAPGKGLEWVAVISYDGSNKYYVDSVKGRFTISRDNSKNTLYLQMNSLRAEDTAVYYCRWAYWELLPDYYYGMDVWGQGTTVTVSSGGSSGQMQLVQSGPEVKKPGTSVKVSCKASGFTFTSSAVQWVRQRQRLEWIGWIVVGSGNTNYAQKFQERVTITRDMSTSTAYMELSSLRSEDTAVYYCAAPNCSNVVCYDGFDIWGQGTMVTVSSASGGSGDKTHTCPPCPAPELLGGPSVFLFPPKPKDTLMISRTPEVTCVVVDVSHEDPEVKFNWYVDGVEVHNAKTKPREEQYNSYVVSVLTVLHQDWLNGKEYKCKVSNKALPAPIEKTISKAKGQPREPQVYTLPPSRDELTKNQVSLTCLVKGFYPSDIAVEWESNGQPENNYKTTPPVLDSDGSFFKKLTVDKSRWQQGNVFSCSVLHEALHSHYTQKSLSLSPG
For the molecule B2, in [9], the “IC50, pseudovirus neutralization” value amounted to 4.04 ng/mL and the “IC80, pseudovirus neutralization” value came out at 4.6 ng/mL.

B3: MX1049 (bispecific antibody)
chain: EIVLTQSPGTLSLSPGERATLSCRASQSVSSSYLAWYQQKPGQAPRLLIYSASSRATGIPDRFSGSGSGTDFTLTISRLEPEDFAVYFCQQYVGLTGWTFGQGTKVEIKGGSSGDTVMTQSPLSLPVTPGEPASISCRSSQSLLNSNGYNYLDWYVQKPGQSPQLLIYLGSNRASGVPDRFSGSGSGTDFTLKISRVEAEDVGVYYCMQPLQTPLFTFGPGTKVEIKGGGGSGGSGSGGGGSASGSGQVTLRESGPALVKPTQTLTLTCTFSGFSLSTRGVCVSWIRQPPGKALEWLAFIDWDDDKYYNTSLKTRLTISKDTSKNQVVLTMTNVHPVDTATYYCARISSHHGSSWCTTFDYWGQGALVTVSAGGSSGQMQLVQSGPEVKKPGTSVKVSCKASGFTFTSSAVQWVRQRQRLEWIGWIVVGSGNTNYAQKFQERVTITRDMSTSTAYMELSSLRSEDTAVYYCAAPNCSNVVCYDGFDIWGQGTMVTVSSASGGSGDKTHTCPPCPAPELLGGPSVFLFPPKPKDTLMISRTPEVTCVVVDVSHEDPEVKFNWYVDGVEVHNAKTKPREEQYNSYVVSVLTVLHQDWLNGKEYKCKVSNKALPAPIEKTISKAKGQPREPQVYTLPPSRDELTKNQVSLTCLVKGFYPSDIAVEWESNGQPENNYKTTPPVLDSDGSFFKKLTVDKSRWQQGNVFSCSVLHEALHSHYTQKSLSLSPG
With B3, in assay [9], the “IC50, pseudovirus neutralization” value worked out at 3.27 ng/mL and the “IC80, pseudovirus neutralization” value was determined as 7.16 ng/mL.
